Compound potency records, mixed from different reports. Data source: NIAID ChemDB in PubChem.

All rows: tests in culture; species: Hepatitis C virus; read by: replicon; read-out: EC50

Conditions beyond the fields shown may differ between rows. An empty or dashed field is not shown. ECn is the concentration giving n% inhibition of infection, replication or growth. a–b is a range or a potency band.

| smiles | strain or isolate | conditions | cells | value |
|---|---|---|---|---|
| C=CC1CC1(NC(=O)[C@@H]1C[C@@H](OC(=O)Nc2cc(C)ccc2Cl)CN1C(=O)[C@@H](NC(=O)OC(C)(C)C)C(C)(C)C)C(=O)NS(=O)(=O)C1CC1 | 1b |  | Huh7 | 0.1–1 µM |
| O=C(Cc1c(F)ccc(F)c1F)N/N=C/c1ccccc1OS(=O)(=O)c1ccc(C(F)(F)F)cc1 |  |  | Huh7 | <5 µM |
| C=CC1CC1(NC(=O)[C@@H]1C[C@@H](OC(=O)Nc2ccccc2C(C)(C)C)CN1C(=O)[C@@H](NC(=O)OC(C)(C)C)C(C)(C)C)C(=O)NS(=O)(=O)C1CC1 | 1b |  | Huh7 | 1–10 µM |
| COC(=O)c1ccc2c(C3CCCCC3)c3n(c2c1)CC(C(=O)N1CCCOCC1)=Cc1ccccc1-3 |  |  | Huh7 | 1–10 µM |
| O=C(Cc1cccc(Cl)c1)N/N=C/c1ccccc1OS(=O)(=O)c1ccc(C(F)(F)F)cc1 |  |  | Huh7 | <5 µM |
| CCCCOC(=O)[C@H](C)NP(=O)(/C=C/[C@@H]1C[C@@H](O)[C@H](n2cnc3c(=O)[nH]c(N)nc32)O1)N[C@@H](C)C(=O)OCCCC |  |  |  | <10 µM |
| CNC(=O)c1c(-c2ccc(F)cc2)oc2cc(-c3ncn[nH]3)c(OC(C)C)cc12 |  |  | Huh7 | <30 µM |
| Cc1ccc(-n2ncc3c(Nc4ccc(C(N)=O)cc4)ncnc32)c(C)c1 |  |  | HUH 9B | 1–10 µM |
| C[C@@H]1CN(C(=O)C2=Cc3ccccc3-c3c(C4CCCCC4)c4ccc(C(=O)NS(=O)(=O)N(C)C)cc4n3C2)C[C@H](C)O1 |  |  | Huh7 | 0.01–1 µM |
| COc1cccc(CC(=O)N/N=C/c2cccc(C)c2OS(=O)(=O)c2ccc(C(F)(F)F)cc2)c1 |  |  | Huh7 | <5 µM |
| O=C(Nc1ccc(C2SC(=Nc3cccc(F)c3)N(CCc3cccs3)C2=O)cc1)[C@H]1CCCN1C(=O)OCc1ccccc1 |  |  | Huh7 | 1–5 µM |
| O=C(Nc1cccc(-c2cc(-c3c(O)cccc3Cl)no2)c1)C(Cl)Cl |  |  |  | ≤10 µM |
| C=CC1CC1(NC(=O)[C@@H]1C[C@@H](Oc2cc(-c3ccccc3)nc3cc(OC)ccc23)CN1C(=O)[C@@H](NC(=O)OC(C)(C)C)C(C)(C)C)C(=O)NS(=O)(=O)C1(C(=O)Cc2ccccc2)CC1 | 1b |  | Huh7 | <0.05 µM |
| COc1cccc(CC(=O)N/N=C/c2ccccc2OS(=O)(=O)c2ccc(-n3cccn3)cc2)c1 |  |  | Huh7 | <5 µM |
| CNC(=O)c1c(-c2ccc(F)cc2)oc2cc(C3NC(=O)NC3=O)c(OC)cc12 |  |  | Huh7 | <10 µM |
| O=C(Nc1cccc(-c2cc(-c3c(Cl)cc(OCCCN4CCOCC4)cc3Cl)no2)c1)C(Cl)Cl |  |  |  | ≤10 µM |
| CN(C)S(=O)(=O)NC(=O)c1ccc2c(C3CCCCC3)c3n(c2c1)CC(C(=O)N1CCOCC1)=Cc1ccc(Cl)cc1-3 |  |  | Huh7 | 1–10 µM |
| CNC(=O)c1c(-c2ccccc2F)oc2ccc(OC)cc12 |  |  | Huh7 | <10 µM |
| CCC(C)c1ccc(N=C2SC(c3ccc(NC(=O)[C@@H](C)NC(=O)OCc4ccccc4)cc3)C(=O)N2Cc2ccco2)cc1 |  |  | Huh7 | 1–5 µM |
| CCCCOC(=O)[C@@H](C)NP(=O)(/C=C/[C@@H]1C[C@@H](O)[C@H](n2ccc(N)nc2=O)O1)N[C@H](C)C(=O)OCCCC |  |  |  | >100 µM |
| CCOc1nc(N)nc2c1ncn2[C@@H]1O[C@@H]2COP(=O)(OC(C)C)O[C@H]2[C@@]1(C)F | 2a | 154 d |  | 3.36 µM |
| C=C[C@H]1C[C@@]1(NC(=O)[C@@H]1C[C@@H](Oc2cc(-c3ccccc3)nc3cc(OC)ccc23)CN1C(=O)[C@@H](NC(=O)OC(C)(C)C)C(C)C)C(=O)NS(=O)(=O)C1(COC)CC1 | 1b |  | Huh7 | <0.05 µM |
| O=C(NC1(C(=O)O)CCCC1)c1ccc2c(C3CCCCC3)c3n(c2c1)CCCNc1ccccc1C3 |  |  | Huh7 | 1–10 µM |
| C=C[C@H]1C[C@@]1(NC(=O)[C@@H]1C[C@@H](Oc2cc(-c3ccccc3)nc3cc(OC)ccc23)CN1C(=O)[C@@H](NC(=O)OC(C)(C)C)C(C)(C)C)C(=O)NS(=O)(=O)C1(Cc2ccccn2)CC1 | 1b |  | Huh7 | <0.05 µM |
| O=C(Nc1cccc(-c2cc(-c3c(O)cccc3C(F)(F)F)no2)c1)C(Cl)Cl |  |  |  | ≤10 µM |
| CC(C)(C)O[C@H]1C[C@H](C(=O)Nc2ccc(C3SC(=Nc4ccc(N5CCOCC5)cc4)N(Cc4ccccn4)C3=O)cc2)N(C(=O)OCc2ccccc2)C1 |  |  | Huh7 | 1–5 µM |
| CNC(=O)c1c(-c2ccc(F)cc2)oc2cc(O)c(O)cc12 |  |  | Huh7 | >30 µM |
| COc1cccc(CC(=O)N/N=C/c2ccncc2OS(=O)(=O)c2ccc(C)cc2)c1 |  |  | Huh7 | <5 µM |
| CS(=O)(=O)NC(=O)c1c(-c2ccc[nH]c2=O)c2c3occc3c(F)cc2n1Cc1cc2ccccc2nc1Cl |  |  |  | <0.5 µM |
| Nc1ncnc2c1ncn2[C@@H]1O[C@H](/C=C/P(=O)(O)O)C[C@H]1O |  |  |  | <10 µM |
| COC(=O)c1ccc2c(C3CCCCC3)c3n(c2c1)CC(C(=O)O)=Cc1ccc(Cl)cc1-3 |  |  | Huh7 | 1–10 µM |
| O=C(N/N=C/c1ccccc1OS(=O)(=O)c1ccc(C(F)(F)F)cc1)c1cccnc1 |  |  | Huh7 | 5–50 µM |
| O=C(Nc1cccc(-c2cc(-c3cccc(Cl)c3Cl)no2)c1)C(Cl)Cl |  |  |  | >10 µM |
| Cc1cnc(CN2C(=O)C(c3ccc(NC(=O)[C@H]4CCCN4C(=O)OCc4ccccc4)cc3)SC2=Nc2cccc(F)c2)cn1 |  |  | Huh7 | <0.1 µM |
| C=C[C@H]1C[C@@]1(NC(=O)[C@@H]1C[C@@H](Oc2cc(-c3ccccc3)nc3cc(OC)ccc23)CN1C(=O)[C@@H](NC(=O)OC(C)(C)C)C(C)(C)C)C(=O)NS(=O)(=O)C1(CC(C)C)CC1 | 1b |  | Huh7 | 0.05–0.5 µM |
| C=CC1CC1(NC(=O)[C@@H]1C[C@@H](OC(=O)Nc2ccccc2Oc2ccccc2)CN1C(=O)[C@@H](NC(=O)OC(C)(C)C)C(C)(C)C)C(=O)NS(=O)(=O)C1CC1 | 1b |  | Huh7 | 0.1–1 µM |
| Nc1cc(Cn2c(C(=O)NS(=O)(=O)c3ccccc3)c(-c3ccc[nH]c3=O)c3c4ccccc4ccc32)ccn1 |  |  |  | 1–10 µM |
| NS(=O)(=O)c1ccc(CCNc2ncnc3c2cnn3-c2ccccc2C(F)(F)F)cc1 |  |  | HUH 9B | 1–10 µM |
| CNC(=O)c1c(-c2ccc(F)cc2)oc2cc(C(=O)O)c(OC(C)C)cc12 |  |  | Huh7 | <10 µM |
| Cc1ccc(-n2ncc3c(NC(=O)Nc4ccc(Cl)cc4)ncnc32)c(C)c1 |  |  | HUH 9B | <1 µM |
| CC(C)(C)OC(=O)N1CCn2c(c(C3CCCCC3)c3ccc(C(=O)NS(=O)(=O)C4CC4)cc32)-c2ccccc21 |  |  | Huh7 | 0.01–1 µM |
| O=C(Nc1cccc(-c2cc(-c3c(Cl)cccc3Cl)no2)c1)C(Cl)Cl |  |  |  | ≤10 µM |
| Cc1cccc(Cn2c(C(=O)O)c(-c3ccc[nH]c3=O)c3c4occc4c(F)cc32)c1F |  |  |  | <0.5 µM |
| Nc1ncnc2c1nnn2[C@@H]1O[C@H](/C=C/P(=O)(O)O)C[C@H]1O |  |  |  | >100 µM |
| Cc1ccc(F)c(-c2cc(-c3cccc(NC(=O)C(Cl)Cl)c3)on2)c1Cl |  |  |  | ≤10 µM |
| CNC(=O)c1c(-c2ccc(F)cc2)oc2cc(N3CCOCC3)c(OCc3ccc(C(=O)O)cc3)cc12 |  |  | Huh7 | <10 µM |
| CCOc1cccc(/C=N/NC(=O)Cc2cccc(OC)c2)c1OS(=O)(=O)c1ccc(C)cc1 |  |  | Huh7 | 5–50 µM |
| CCCCOC(=O)[C@H](C)NP(=O)(/C=C/[C@@]1(N=[N+]=[N-])O[C@@H](n2cnc3c(N)ncnc32)[C@H](O)[C@@H]1O)N[C@@H](C)C(=O)OCCCC |  |  |  | >100 µM |
| O=C(N/N=C/c1ccccc1OS(=O)(=O)c1ccc(C(F)(F)F)cc1)OCc1ccccc1 |  |  | Huh7 | <5 µM |
| Cc1cnc(CN2C(=O)C(c3ccc(NC(=O)[C@H]4CCC(=O)N4C(=O)OCc4ccccc4)cc3)SC2=Nc2ccc(N3CCOCC3)cc2)cn1 |  |  | Huh7 | <0.1 µM |
| O=C(O)c1c(-c2ccc[nH]c2=O)c2c3occc3ccc2n1Cc1cc(F)ccc1F |  |  |  | <0.5 µM |
| CN1C(=O)C(c2ccc(NC(=O)[C@H]3CCCN3C(=O)OCc3ccccc3)cc2)SC1=NCc1ccccn1 |  |  | Huh7 | 0.1–1 µM |
| O=C(O)c1c(-c2ccc[nH]c2=O)c2c3occc3c(F)cc2n1Cc1cc[nH]c(=O)c1 |  |  |  | <0.5 µM |
| C=C[C@H]1C[C@@]1(NC(=O)[C@@H]1C[C@@H](Oc2ccnc3cc(Cl)ccc23)CN1C(=O)[C@@H](NC(=O)OC1CCCC1)C(C)(C)C)C(=O)NS(=O)(=O)C1(CCCC)CC1 | 1b |  | Huh7 | 0.05–0.5 µM |
| NC(=O)c1cc(Cn2c(C(=O)NS(=O)(=O)C3CC3)c(-c3ccc[nH]c3=O)c3c4occc4c(F)cc32)cs1 |  |  |  | <0.5 µM |
| O=C(Nc1ccc(C2SC(=Nc3ccc(N4CCOCC4)cc3)N(Cc3ccccn3)C2=O)cc1)[C@H]1CCCN1C(=O)NCc1ccccc1 |  |  | Huh7 | <0.1 µM |
| C=CC1CC1(NC(=O)[C@@H]1C[C@@H](OC(=O)N2CCCCC2)CN1C(=O)[C@@H](NC(=O)OC(C)(C)C)C(C)(C)C)C(=O)NS(=O)(=O)C1CC1 | 1b |  | Huh7 | 1–10 µM |
| NC(=O)c1ccc(F)c(Cn2c(C(=O)O)c(-c3ccc[nH]c3=O)c3c4occc4ccc32)c1 |  |  |  | <0.5 µM |
| CCCCc1ccc(Nc2ncnc3c2cnn3-c2ccc(F)cc2F)cc1 |  |  | HUH 9B | 1–10 µM |
| CC(C)Oc1ccccc1-c1cc(-c2cccc(NC(=O)C(Cl)Cl)c2)on1 |  |  |  | ≤10 µM |
| Cc1ccc(-n2ncc3c(Nc4ccc(S(=O)(=O)Nc5nccs5)cc4)ncnc32)c(C)c1 |  |  | HUH 9B | 1–10 µM |
| CS(=O)(=O)NC(=O)c1c(-c2ccc[nH]c2=O)c2c3occc3c(F)cc2n1Cc1ccc2onc(N)c2c1 |  |  |  | <0.5 µM |
| Cc1ccc(-n2ncc3c(Nc4cccc(Br)c4)ncnc32)c(C)c1 |  |  | HUH 9B | 1–10 µM |
| CNC(=O)c1c(-c2ccc(F)cc2)oc2cc(NC3=C(C)NOC3C)c(OC(C)C)cc12 |  |  | Huh7 | >30 µM |
| COc1cccc(CC(=O)N/N=C/c2ncccc2OS(=O)(=O)c2ccc(C)cc2)c1 |  |  | Huh7 | <5 µM |
| COC(=O)/C=C/c1ccc(NC(=O)C2(NC(=O)c3ccc4c(C5CCCCC5)c5n(c4c3)C[C@@H](O)[C@@H](O)c3ncccc3-5)CCCC2)cc1 |  |  | Huh7 | 0.01–1 µM |
| C=CC1CC1(NC(=O)[C@@H]1C[C@@H](OC(=O)Nc2cc(C)cc(C)c2)CN1C(=O)[C@@H](NC(=O)OC(C)(C)C)C(C)(C)C)C(=O)NS(=O)(=O)C1CC1 | 1b |  | Huh7 | 1–10 µM |
| C[C@H](C(=O)Nc1ccc(C2SC(=Nc3ccc(N4CCOCC4)cc3)N(Cc3ccccn3)C2=O)cc1)N(C)C(=O)OCc1ccccc1 |  |  | Huh7 | 0.1–1 µM |
| Cc1ccc(-n2ncc3c(Nc4ccc(F)c(Cl)c4)ncnc32)c(C)c1 |  |  | HUH 9B | <1 µM |
| COc1ccc2c(O[C@@H]3C[C@@H](C(=O)N[C@@]4(C(=O)NS(=O)(=O)C5(CC6CC6)CC5)CC45CC5)N(C(=O)[C@@H](NC(=O)OC(C)(C)C)C(C)(C)C)C3)cc(-c3ccccc3)nc2c1 | 1b |  | Huh7 | 0.5–5 µM |
| CC(C)(C)N=C1SC(c2ccc(NC(=O)[C@H]3CCCN3C(=O)OCc3ccccc3)cc2)C(=O)N1Cc1ccccn1 |  |  | Huh7 | 0.1–1 µM |
| O=C(O)c1c(-c2ccc[nH]c2=O)c2c3occc3c(F)cc2n1Cc1nc2ccccc2[nH]c1=O |  |  |  | <0.5 µM |

For reference, 5 entries again:

O=C(Nc1ccc(C2SC(=Nc3cccc(F)c3)N(CCc3cccs3)C2=O)cc1)[C@H]1CCCN1C(=O)OCc1ccccc1 ; cells: Huh7 ; value: 1–5 µM
C=C[C@H]1C[C@@]1(NC(=O)[C@@H]1C[C@@H](Oc2cc(-c3ccccc3)nc3cc(OC)ccc23)CN1C(=O)[C@@H](NC(=O)OC(C)(C)C)C(C)(C)C)C(=O)NS(=O)(=O)C1(Cc2ccccn2)CC1 ; strain or isolate: 1b ; cells: Huh7 ; value: <0.05 µM
Cc1cnc(CN2C(=O)C(c3ccc(NC(=O)[C@H]4CCCN4C(=O)OCc4ccccc4)cc3)SC2=Nc2cccc(F)c2)cn1 ; cells: Huh7 ; value: <0.1 µM
CC(C)Oc1ccccc1-c1cc(-c2cccc(NC(=O)C(Cl)Cl)c2)on1 ; value: ≤10 µM
NC(=O)c1cc(Cn2c(C(=O)NS(=O)(=O)C3CC3)c(-c3ccc[nH]c3=O)c3c4occc4c(F)cc32)cs1 ; value: <0.5 µM